This is an account of results in US3945994A, “Novel acid compounds” (Gist-Brocades N.V., priority 1973, dated 1976).

Converted amounts (≈) assume the structure as drawn.

Common to all, as to test: agar serial dilution test, MIC
Details in all cases: 24 hours at 37°C

Test [1] concerns Brucella melitensis A 488.
For test [2], the system named is Proteus mirabilis L 93.
Test [3] concerns Shigella equirulis T 3.
Test [4] concerns Pseudomonas aeruginosa 2396. Format: cell-based.
Test [5] relates to Staphylococcus aureus A 321. Type of test: cell-based.
Test [6] relates to Salmonella dublin P 43. Format: cell-based.
Test [7] relates to Pseudomonas aeruginosa H 10. Type of test: cell-based.
In test [8] the test system is Streptococcus haemolyticus A 266. Format: cell-based.
Test [9] concerns Diplococcus pneumoniae L 54. Format: cell-based.
In test [10] the test system is Streptococcus faecalis L 80. Type of test: cell-based.
The subject of test [11] is Proteus mirabilis A 1200. Type of test: cell-based.
Test [12] concerns Pasteurella multocida A 723. Format: cell-based.
Test [13] concerns Klebsiella pneumoniae A 809. Format: cell-based.
In test [14] the test system is Staphylococcus aureus A 2001. Type of test: cell-based.
Test [15] deals with Proteus mirabilis H 3. Format: cell-based.
Test [16] relates to Staphylococcus aureus A 355'. Format: cell-based.
Test [17] has as its system Staphylococcus aureus A 2000. Type of test: cell-based.
The subject of test [18] is Pseudomonas aeruginosa Wyeth A 1058. Type of test: cell-based.
Test [19] relates to Proteus morganii 2241. Type of test: cell-based.
For test [20], the system named is Proteus rettgeri A 821. Type of test: cell-based.
Test [21] relates to Salmonella typhimurium R172. Format: cell-based.
The test system of test [22] is Escherichia coli U 20. Type of test: cell-based.

A word on the MIC: it is the least concentration at which growth counts as inhibited. A higher MIC goes with weaker potency. For the molecule `CCSP(=O)(NC(=O)N[C@@H](C(=O)N[C@@H]1C(=O)N2[C@@H]1SC(C)(C)[C@@H]2C(=O)O)c1ccccc1)SCC`, the MIC in test [1] came out at 0.5 µg/mL (≈ 0.892 µM); in test [2] it was 1.5 µg/mL (≈ 2.68 µM); in test [3], 1.5 µg/mL (≈ 2.68 µM); in [4] it was 50 µg/mL (≈ 89.2 µM); in test [5] it was 0.5 µg/mL (≈ 0.892 µM); in test [6], 3 µg/mL (≈ 5.35 µM). The MIC in [7] came out at 100 µg/mL (≈ 178 µM); in test [8], 0.06 µg/mL (≈ 0.107 µM); in [9] it was 0.25 µg/mL (≈ 0.446 µM); in test [10], 3 µg/mL (≈ 5.35 µM); in test [11], 6 µg/mL (≈ 10.7 µM); in [12], 0.5 µg/mL (≈ 0.892 µM). Also, the MIC in test [13] stood at 25 µg/mL (≈ 44.6 µM); in test [14] it was 6 µg/mL (≈ 10.7 µM); in test [15], 6 µg/mL (≈ 10.7 µM); in test [16], 6 µg/mL (≈ 10.7 µM); in test [17] it was 6 µg/mL (≈ 10.7 µM); in test [18], 50 µg/mL (≈ 89.2 µM). Besides, the MIC in test [19] was found to be 100 µg/mL (≈ 178 µM).

Regarding `CCOP(=S)(NC(=O)N[C@@H](C(=O)N[C@@H]1C(=O)N2C(C(=O)O)=C(C)CS[C@H]12)c1ccccc1)OCC`, the MIC is 100 µg/mL (≈ 184 µM) in [1]; greater than 100 µg/mL in test [2]; 100 µg/mL (≈ 184 µM) in [3]; greater than 100 µg/mL in [4]; 50 µg/mL (≈ 92.2 µM) in test [6]; greater than 100 µg/mL in test [7]. Further, the MIC in [8] was 1 µg/mL (≈ 1.84 µM); in [9], 6 µg/mL (≈ 11.1 µM); in [10], greater than 100 µg/mL; in [20], 25 µg/mL (≈ 46.1 µM); in test [11], greater than 100 µg/mL; in test [12], 25 µg/mL (≈ 46.1 µM). Besides, the MIC in [13] was 50 µg/mL (≈ 92.2 µM); in [15] it was greater than 100 µg/mL; in [21], 100 µg/mL (≈ 184 µM); in [18], greater than 100 µg/mL; in test [22], greater than 100 µg/mL; in test [19], greater than 100 µg/mL.

In the case of `CCOP(=S)(NC(=O)N[C@@H](C(=O)N[C@@H]1C(=O)N2[C@@H]1SC(C)(C)[C@@H]2C(=O)O)c1ccccc1)OCC`, the MIC was 0.5 µg/mL (≈ 0.918 µM) in [1]; 6 µg/mL (≈ 11 µM) in test [2]; 6 µg/mL (≈ 11 µM) in [3]; 100 µg/mL (≈ 184 µM) in test [4]; 1 µg/mL (≈ 1.84 µM) in test [5]; greater than 100 µg/mL in test [7]. Further, the MIC in test [8] was found to be 0.03 µg/mL (≈ 0.0551 µM); in test [9], 0.3 µg/mL (≈ 0.551 µM); in test [10] it was 3 µg/mL (≈ 5.51 µM); in [11] it was 25 µg/mL (≈ 45.9 µM); in [12] it was 1.5 µg/mL (≈ 2.75 µM); in test [13], 25 µg/mL (≈ 45.9 µM). The MIC in test [14] worked out at 3 µg/mL (≈ 5.51 µM); in test [16], 25 µg/mL (≈ 45.9 µM); in [17], 6 µg/mL (≈ 11 µM); in [18] it was 100 µg/mL (≈ 184 µM); in test [22], 50 µg/mL (≈ 91.8 µM); in [19], 100 µg/mL (≈ 184 µM).

With `CCOP(=O)(NC(=O)N[C@@H](C(=O)N[C@@H]1C(=O)N2C(C(=O)O)=C(C)CS[C@H]12)c1ccccc1)OCC`, the MIC in test [2] was 100 µg/mL (≈ 190 µM); in test [3], 25 µg/mL (≈ 47.5 µM); in test [4] it was greater than 100 µg/mL; in [5], 6 µg/mL (≈ 11.4 µM); in test [6], 100 µg/mL (≈ 190 µM); in test [7], greater than 100 µg/mL. The minimum inhibitory concentration (MIC) in test [8] is 1.5 µg/mL (≈ 2.85 µM); in test [9], 25 µg/mL (≈ 47.5 µM); in [10] it was greater than 100 µg/mL; in test [20] it was 50 µg/mL (≈ 95 µM); in [11], greater than 100 µg/mL; in test [13], 25 µg/mL (≈ 47.5 µM). In addition, the MIC was 6 µg/mL (≈ 11.4 µM) in test [14]; greater than 100 µg/mL in [15]; 100 µg/mL (≈ 190 µM) in test [21]; greater than 100 µg/mL in [18]; 100 µg/mL (≈ 190 µM) in test [22]; greater than 100 µg/mL in test [19].

For `CCOC(=O)NNP(=O)(NC(=O)N[C@@H](C(=O)N[C@@H]1C(=O)N2[C@@H]1SC(C)(C)[C@@H]2C(=O)O)c1ccccc1)OCC` (stereo partly shown), the MIC in test [1] worked out at 0.5 µg/mL (≈ 0.852 µM); in test [2], 1.5 µg/mL (≈ 2.56 µM); in test [3], 1.5 µg/mL (≈ 2.56 µM); in [4], 25 µg/mL (≈ 42.6 µM); in [5] it was 0.5 µg/mL (≈ 0.852 µM); in test [6], 6 µg/mL (≈ 10.2 µM). The MIC is greater than 100 µg/mL in test [7]; 0.06 µg/mL (≈ 0.102 µM) in test [8]; 0.5 µg/mL (≈ 0.852 µM) in test [9]; 3 µg/mL (≈ 5.11 µM) in [10]; 3 µg/mL (≈ 5.11 µM) in [11]; 0.75 µg/mL (≈ 1.28 µM) in test [12]. Also, the MIC in [13] is greater than 100 µg/mL; in [14], 3 µg/mL (≈ 5.11 µM); in test [15] it was 6 µg/mL (≈ 10.2 µM); in test [16], 6 µg/mL (≈ 10.2 µM); in test [17], 6 µg/mL (≈ 10.2 µM); in test [18], 25 µg/mL (≈ 42.6 µM). Besides, the MIC in [22] was found to be 25 µg/mL (≈ 42.6 µM); in [19], 50 µg/mL (≈ 85.2 µM).

Take “Pivaloyloxymethyl D-6 [α-{3-(diphenoxyphosphinyl)-ureido}-benzylcarbonamido]-penicillanate”: the MIC was greater than 100 µg/mL in test [2]; greater than 100 µg/mL in test [3]; greater than 100 µg/mL in test [4]; 100 µg/mL in [5]; greater than 100 µg/mL in test [6]; greater than 100 µg/mL in test [7]. Also, the MIC in [9] was 50 µg/mL; in test [10] it was greater than 100 µg/mL; in test [20], greater than 100 µg/mL; in [11] it was greater than 100 µg/mL; in test [12], greater than 100 µg/mL; in [13], greater than 100 µg/mL. Further, the MIC in test [14], in [15], in [16], in [17], in test [21] and in [18] was greater than 100 µg/mL in each case. The minimal inhibitory concentration (MIC) in [22] and in test [19] was greater than 100 µg/mL throughout.

Turning to `CC1(C)S[C@@H]2[C@H](NC(=O)[C@H](NC(=O)NP(=O)(Nc3ccccc3)Nc3ccccc3)c3ccccc3)C(=O)N2[C@H]1C(=O)O`, the MIC in [1] came to 0.5 µg/mL (≈ 0.803 µM); in test [2] it was 0.3 µg/mL (≈ 0.482 µM); in [3] it was 1.5 µg/mL (≈ 2.41 µM); in test [4], 25 µg/mL (≈ 40.2 µM); in [5], 0.25 µg/mL (≈ 0.402 µM); in test [7], 100 µg/mL (≈ 161 µM). Besides, the MIC in test [8] stood at 0.03 µg/mL (≈ 0.0482 µM); in [9], 0.5 µg/mL (≈ 0.803 µM); in test [10] it was 3 µg/mL (≈ 4.82 µM); in test [11] it was 6 µg/mL (≈ 9.64 µM); in [12] it was 1.5 µg/mL (≈ 2.41 µM); in test [13], 25 µg/mL (≈ 40.2 µM). Also, the MIC was determined as 3 µg/mL (≈ 4.82 µM) in [14]; 3 µg/mL (≈ 4.82 µM) in test [16]; 3 µg/mL (≈ 4.82 µM) in [17]; 25 µg/mL (≈ 40.2 µM) in test [21]; 25 µg/mL (≈ 40.2 µM) in [18]; 25 µg/mL (≈ 40.2 µM) in test [22]. Moreover, the MIC in test [19] is 25 µg/mL (≈ 40.2 µM).

For the molecule `CCOP(=O)(NC(=O)N[C@@H](C(=O)N[C@@H]1C(=O)N2[C@@H]1SC(C)(C)[C@@H]2C(=O)O)c1ccccc1)Nc1ccccc1` (stereo partly shown), the MIC was determined as 1.5 µg/mL (≈ 2.61 µM) in test [1]; 6 µg/mL (≈ 10.4 µM) in test [2]; 3 µg/mL (≈ 5.21 µM) in test [3]; 25 µg/mL (≈ 43.4 µM) in test [4]; 0.5 µg/mL (≈ 0.869 µM) in test [5]; 100 µg/mL (≈ 174 µM) in [7]. The MIC in test [8] came out at 0.06 µg/mL (≈ 0.104 µM); in test [9], 0.5 µg/mL (≈ 0.869 µM); in test [10], 6 µg/mL (≈ 10.4 µM); in [20], 3 µg/mL (≈ 5.21 µM); in test [12], 3 µg/mL (≈ 5.21 µM); in test [13], 25 µg/mL (≈ 43.4 µM). Also, the MIC in test [14] turned out to be 3 µg/mL (≈ 5.21 µM); in test [15], 25 µg/mL (≈ 43.4 µM); in test [16], 6 µg/mL (≈ 10.4 µM); in [17], 3 µg/mL (≈ 5.21 µM); in test [21], 25 µg/mL (≈ 43.4 µM); in test [18], 25 µg/mL (≈ 43.4 µM). Besides, the MIC was 25 µg/mL (≈ 43.4 µM) in test [22] and 50 µg/mL (≈ 86.9 µM) in [19].

For `CCOP(=O)(O)NC(=O)N[C@@H](C(=O)N[C@@H]1C(=O)N2C(C(=O)O)=C(C)CS[C@H]12)c1ccccc1`, the MIC in [1] is 25 µg/mL (≈ 50.2 µM); in [4] it was greater than 100 µg/mL; in test [5] it was 25 µg/mL (≈ 50.2 µM); in [6], 50 µg/mL (≈ 100 µM); in [7], greater than 100 µg/mL; in test [9], greater than 100 µg/mL. Also, the MIC in test [10] is greater than 100 µg/mL; in [20], 6 µg/mL (≈ 12 µM); in [11], 100 µg/mL (≈ 201 µM); in [13], 50 µg/mL (≈ 100 µM); in test [15], 25 µg/mL (≈ 50.2 µM); in [16], 100 µg/mL (≈ 201 µM). The MIC is 50 µg/mL (≈ 100 µM) in [17]; greater than 100 µg/mL in [21]; greater than 100 µg/mL in test [18]; greater than 100 µg/mL in test [22]; greater than 100 µg/mL in test [19].
